Pooled drug test results. Numbers come from NIAID ChemDB, via PubChem.

Common to all: enzyme or target tests

a–b is a range or a potency band. Rows are shuffled and stem from different studies. Inhibition is in % at the dose shown (toxicity tests: loss of growth or viability). ICn: concentration for n% inhibition. Fold resistance: result on the changed form divided by that on wild type. Blank or dashed fields: not listed here.

structure	strain or isolate	read by	protein	agent	dose	mutations	measure	value
NC(N)=NC[C@@H]1O[C@H](O[C@H]2[C@@H](O)[C@H](O[C@@H]3[C@H](O)[C@@H](N=C(N)N)C[C@@H](N=C(N)N)[C@H]3O[C@H]3O[C@H](CN=C(N)N)[C@@H](O)[C@H](O)[C@H]3N=C(N)N)O[C@@H]2CO)[C@H](N=C(N)N)[C@@H](O)[C@@H]1O		fluorescence	Rev:RRE	HIV-1			IC50	1.3 µM
CCCCCCCCC[C@H]1CC2CCC3C(C(=O)OCCCCN=C(N)N)[C@@H](C)N=C(N1)N23		ELISA	gp120	HIV-1			IC50	72 µM
CCOC(=O)c1ccc(Nc2nc(-c3cccnc3)nc3ccccc23)cc1		AlphaScreen	Capsid	HIV-1			IC50	14.2 µM
CSC(C)(C)[C@H](NC(=O)COc1cccc2ccccc12)C(=O)N[C@@H](Cc1ccccc1)[C@H](O)C(=O)N1CSC[C@H]1C(=O)NC(C)(C)C			Protease	HIV-1	0.05 µM		inhibition	64.6%
NC[C@H]1O[C@H](O[C@H]2[C@H](O)[C@@H](O[C@H]3O[C@H](CO)[C@@H](O)[C@H](N)[C@H]3O)[C@H](N)C[C@@H]2N)[C@H](N)C[C@@H]1O		fluorescence	Rev:RRE	HIV-1			IC50	80 µM
O=C(Nc1cn2ccn(Cc3ccc(F)cc3)c(=O)c2c(O)c1=O)c1cccnc1		ELISA	Integrase	HIV-1			IC50	<0.01 µM
O=C(O[C@@H]1O[C@@H]2COC(=O)c3cc(O)c(O)c(O)c3-c3c(cc(O)c(O)c3O)C(=O)O[C@H]([C@H]1O)[C@@H]2O)c1cc(O)c(O)c(O)c1		ELISA	gp120 + CD4	HIV-1			IC50	0.5 µg/mL
CCOC(=O)C(=O)CC(=O)/C=C/c1cccn1Cc1ccc(C)cc1C		substrate cleavage / fluorescence	RNase H	HIV-1	100 µM	Q475A	inhibition	24%
CCCCCCCCCC1N=C(N)N2CCCC2=C1C(=O)OCCCCN=C(N)N			gp120	HIV-1			IC50	>100 µM
CC(C)Oc1cccc(OCC(=O)N[C@@H](CS(C)(=O)=O)C(=O)N[C@@H](Cc2ccccc2)[C@H](O)C(=O)N2CSC(C)(C)[C@H]2C(=O)NC(C)(C)C)c1			Protease	HIV-1	0.05 µM		inhibition	98%
O=C(/C=C/C1=CC2C=Cc3cc(O)c(O)cc3OC2C(O)=C1)OC(Cc1ccc(O)c(O)c1)C(=O)O		ELISA	Integrase	HIV			IC50	1.78–18.5 µg/mL
Nc1ncnc2c1ccn2[C@H]1C[C@H](F)[C@@H](COP(=O)(O)OP(=O)(O)OP(=O)(O)O)O1		nucleotide incorporation / radiometric	Reverse transcriptase	HIV		RT-M41L T215Y	IC50	0.22 µM
CC(=O)Nc1ccccc1C(=O)Nc1ccc(-c2nc3ccc(NC(=O)c4ccccc4NC(C)=O)cc3[nH]2)cc1		scintillation proximity / radiometric	Rev:RRE	HIV-1			IC50	>90 µM
CN(C)c1ccc(Nc2nc(-c3ccc(Cl)cc3Cl)nc3ccccc23)cc1		AlphaScreen	Capsid	HIV-1			IC50	28.6 µM
COc1ccc(S(=O)(=O)O)cc1N=Nc1c(S(=O)(=O)O)cc2cc(Nc3nc(Nc4ccccc4)nc(Nc4cc(C)c(N=Nc5cc(S(=O)(=O)O)cc6cc(S(=O)(=O)O)cc(O)c56)cc4OC)n3)ccc2c1O	IIIB	ELISA	gp41	HIV-1			IC50	0.73 µg/mL
O=C(O)c1ccc2c(c1)C(=O)N(c1ccc(-c3cc(-c4ccc(N5C(=O)c6ccc(C(=O)O)cc6C5=O)cc4)nc(-c4ccccc4)n3)cc1)C2=O		scintillation proximity / radiometric	Rev:RRE	HIV-1			IC50	0.5 µM
O=C(/C=C/c1cccn1Cc1ccccc1Cl)CC(=O)C(=O)O		substrate cleavage / fluorescence	RNase H	HIV-1	100 µM	N474A	inhibition	21%
Cc1cn([C@H]2CC[C@@H](COP(=O)(O)OP(=O)(O)OP(=O)(O)O)O2)c(=O)[nH]c1=O		nucleotide incorporation / radiometric	Reverse transcriptase	HIV		RT-K65R	fold resistance	5.55
O=[N+]([O-])c1ccccc1S(=O)(=O)Nc1cccc(-c2nc3ccccc3[nH]2)c1		ELISA / entry	gp120 + CD4	HIV-1			IC50	0.02676 µM
CC(=O)Nc1ccc(C(=O)Nc2ccc(-c3nc4ccc(NC(=O)c5ccc(NC(C)=O)cc5)cc4[nH]3)cc2)cc1		scintillation proximity / radiometric	Rev:RRE	HIV-1			IC50	0.3 µM
Cc1ccc(-c2nnc3ccc4c(C(F)(F)F)cc(C(F)(F)F)nc4n23)cc1		fluorescence	gp41	HIV-1			IC50	10 µM
O=[N+]([O-])c1ccc(S(=O)(=O)Nc2ccc(-c3nc4ccccc4[nH]3)cc2)cc1		ELISA / entry	gp120 + CD4	HIV-1			IC50	0.02815 µM
NC[C@H]1O[C@H](O[C@H]2[C@H](O[C@@H]3O[C@H](CO)[C@@H](O)[C@H]3O)[C@@H](O)[C@H](N)C[C@@H]2N)[C@H](N)[C@@H](O)[C@@H]1O		gel	Rev:RRE	HIV-1	100 µM		inhibition	100%
Nc1ncnc2c1ncn2[C@@H]1O[C@H](COP(=O)(O)O[C@H]2[C@@H](O)[C@H](n3cnc4c(N)ncnc43)O[C@@H]2CO)[C@@H](O)[C@H]1O		RNase H	RNase H	HIV-1	50 µM		inhibition	6%
CC(C)(C)NC(=O)[C@@H]1CCCN1C(=O)[C@@H](O)[C@H](Cc1ccccc1)NC(=O)[C@H](CC(N)=O)NC(=O)COC(c1cccc(Cl)c1)c1cccc(Cl)c1			Protease	HIV-1	0.05 µM		inhibition	63%
O=C(/C=C/c1cccn1Cc1ccc(F)cc1)CC(=O)C(=O)O		substrate cleavage / fluorescence	RNase H	HIV-1	100 µM	N474A	inhibition	45%
CC[C@H](C)[C@H](NC(=O)C[C@H](O)[C@H](CC(C)C)NC(=O)[C@H](CC(N)=O)NC(=O)[C@H](CCC(N)=O)NC(=O)[C@H](CO)NC(=O)[C@@H](N)C(C)C)C(=O)N[C@H](C(=O)O)C(C)C			Protease	HIV-2			Ki	9 µM
O=C(O)CCc1ccc(-c2ccc(-c3ccc(CCC(=O)O)cc3)cc2)cc1		ELISA	gp41	HIV-1			IC50	>100 µg/mL
CNC(=O)c1cn2c(c(O)c1=O)C(=O)N(Cc1ccc(F)c(Cl)c1)CC2		ELISA	Integrase	HIV-1			IC50	0.01–0.1 µM
Nc1nc2c(ncn2[C@@H]2O[C@H](COP(=O)(O)O[C@H]3[C@@H](F)[C@H](n4cnc5c(NCc6ccc7ccccc7c6)ncnc54)O[C@@H]3CO)[C@@H](O)[C@H]2O)c(=O)[nH]1		RNase H	RNase H	HIV-1	50 µM		inhibition	80%
CC(C)(C)NC(=O)[C@@H]1CCCN1C(=O)[C@@H](O)[C@H](Cc1ccccc1)NC(=O)[C@H](CC(N)=O)NS(=O)(=O)c1cccc2ccccc12			Protease	HIV-1	0.05 µM		inhibition	11.8%
O=C(/C=C/c1ccc(/C=C/C(=O)Nc2ccc(C3=NCCN3)cc2)cc1)Nc1ccc(C2=NCCN2)cc1		scintillation proximity / radiometric	Rev:RRE	HIV-1			IC50	1.2 µM
CN(C)c1cccc(Nc2nc(-c3cccnc3)nc3ccccc23)c1		AlphaScreen	Capsid	HIV-1			IC50	30.1 µM
COCC1CN(Cc2ccc(F)cc2)C(=O)c2c(O)c(=O)c(C(=O)C(C)(C)C)cn21		ELISA	Integrase	HIV-1			IC50	0.01–0.1 µM
Nc1nc2c(ncn2[C@H]2CC[C@@H](COP(=O)(O)OP(=O)(O)OP(=O)(O)O)O2)c(=O)[nH]1		nucleotide incorporation	Reverse transcriptase	HIV		RT-Y271S	fold resistance	>5
C=CC(C)(C)c1[nH]c2ccccc2c1C1=C(O)C(=O)C(c2c(C(C)(C)C=C)[nH]c3ccccc23)=C(O)C1=O			Protease	HIV		PR-V82T	fold resistance	0.72
Nc1ccn(C2OC(COP(=O)(O)OC3C(CO)OC(n4ccc(N)nc4=O)C3O)C(O)C2O)c(=O)n1		RNase H	RNase H	HIV-1	50 µM		inhibition	23%
CC(C)(C)NC(=O)[C@@H]1CSCN1C(=O)[C@@H](O)[C@H](Cc1ccccc1)NC(=O)[C@@H](NC(=O)COc1cccc2ccccc12)c1ccccc1			Protease	HIV-1			IC50	~0.05 µM
O=[N+]([O-])c1ccc(S(=O)(=O)Nc2ccc(Cc3nc4ccccc4[nH]3)cc2)cc1		ELISA / entry	gp120 + CD4	HIV-1			IC50	0.02516 µM
FC(F)(F)c1cc(C(F)(F)F)c2ccc3nnc(-n4cccc4)n3c2n1		fluorescence	gp41	HIV-1			IC50	40 µM
CC(C)(C)NC(=O)C1N(C(=O)[C@@H](O)[C@H](Cc2ccccc2)NC(=O)[C@H](CS(C)(=O)=O)NC(=O)COc2cccc3ccccc23)CSC1(C)C			Protease	HIV-1	0.05 µM		inhibition	99%
CCCC[C@H](NC(=O)[C@H](C)NC(=O)[C@H](CCC(=O)O)NC[C@H](Cc1ccccc1)NC(=O)[C@H](CC(C)C)NC(=O)[C@@H](NC(=O)[C@@H](N)CCCN=C(N)N)C(C)C)C(N)=O		HPLC	Protease	HIV		PR-G48V	IC50	>0.075 µM
CC[C@H](C)[C@H](NC(=O)[C@@H](NCC(O)[C@H](CC(C)C)NC(=O)[C@H](Cc1cnc[nH]1)N(C)C(=O)[C@H](Cc1ccccc1)NC(=O)[C@@H]1CCCN1C(=O)OC(C)(C)C)C(C)C)C(=O)NCc1ccccn1			Protease	HIV-2			Ki	>1 µM
Cc1ccc(Cn2cccc2/C=C/C(=O)CC(=O)C(=O)O)c(C)c1		substrate cleavage / fluorescence	RNase H	HIV-1		R448A	IC50	27 µM
Nc1nc2c(ncn2[C@@H]2O[C@H](COP(=O)(O)O[C@H]3[C@@H](O)[C@H](n4cnc5c(N)ncnc54)O[C@@H]3CO)[C@@H](O)[C@H]2O)c(=O)[nH]1		RNase H	RNase H	HIV-1	50 µM		inhibition	8%
O=[N+]([O-])c1ccccc1S(=O)(=O)Nc1ccc(Cc2nc3ccccc3[nH]2)cc1		ELISA / entry	gp120 + CD4	HIV-1			IC50	0.0215 µM
c1ccc2c(NCCCn3ccnc3)nc(-c3ccncc3)nc2c1		AlphaScreen	Capsid	HIV-1			IC50	152.8 µM
Nc1nc2c(ncn2[C@@H]2O[C@H](COP(O)(=S)O[C@H]3C[C@H](n4cnc5c(N)ncnc54)O[C@@H]3CO)[C@@H](O)[C@H]2O)c(=O)[nH]1		RNase H	RNase H	HIV-1	50 µM		inhibition	1%
CC(C)=CCC/C(C)=C/CC/C(C)=C/CC/C(C)=C/CC/C(C)=C/CC/C(C)=C/Cc1cc(O)ccc1O		nucleotide incorporation	Reverse transcriptase	HIV-2			IC50	1.5 µM
Nc1nc2c(ncn2[C@@H]2O[C@H](COP(O)(=S)O[C@H]3[C@@H](F)[C@H](n4cnc5c(N)ncnc54)O[C@@H]3CO)[C@@H](O)[C@H]2O)c(=O)[nH]1		RNase H	RNase H	HIV-1	50 µM		inhibition	40%
NC[C@H]1O[C@H](O[C@H]2[C@H](O)[C@@H](O[C@H]3O[C@H](CO)[C@@H](O)[C@H](N)[C@H]3O)[C@H](N)C[C@@H]2N)[C@H](O)[C@@H](O)[C@@H]1O		fluorescence	Rev:RRE	HIV-1			IC50	750 µM
O=C(O)CCc1ccc(-c2ccc(OCC(=O)O)cc2)cc1		ELISA	gp41	HIV-1			IC50	>100 µg/mL
Nc1ncnc2c1ncn2[C@H]1CC[C@@H](COP(=O)(O)OP(=O)(O)OP(=O)(O)OP(=O)(O)OC[C@@H]2CC[C@H](n3cnc4c(N)ncnc43)O2)O1		nucleotide incorporation / radiometric	Reverse transcriptase	HIV		RT-D67N K70R T215Y K219Q	IC50	0.65 µM
Cc1ccc(Cl)cc1Nc1nc(C(F)(F)F)ccc1C(=O)NN1CCN(c2cccc(Cl)c2)CC1		RNase H / absorbance	RNase H	HIV-1		Y181C	IC50	55.4 µM
O=C(Nc1ccc(-c2nc3ccc(NC(=O)c4ccc(Cl)cc4)cc3[nH]2)cc1)c1ccc(Cl)cc1		scintillation proximity / radiometric	Rev:RRE	HIV-1			IC50	2.2 µM
COC(=O)c1cc(F)ccc1CN1CCn2cc(-c3nccs3)c(=O)c(O)c2C1=O		ELISA	Integrase	HIV-1			IC50	0.1–1 µM
Nc1nc2c(ncn2[C@@H]2O[C@H](COP(=O)(O)O[C@H]3[C@@H](O)[C@H](n4cnc5c(=O)[nH]c(N)nc54)O[C@@H]3CO)[C@@H](O)[C@H]2O)c(=O)[nH]1		RNase H	RNase H	HIV-1	50 µM		inhibition	80%
O=[N+]([O-])c1ccc(S(=O)(=O)Nc2cccc(-c3nc4ccccc4[nH]3)c2)cc1		ELISA / entry	gp120 + CD4	HIV-1			IC50	0.02363 µM
NC(N)=NC[C@@H]1O[C@H](O[C@H]2[C@H](O)[C@@H](O[C@H]3O[C@@H](CO)[C@H](O)[C@@H](N=C(N)N)[C@@H]3O)[C@H](N=C(N)N)C[C@@H]2N=C(N)N)[C@@H](O)[C@H](O)[C@H]1O		fluorescence	Rev:RRE	HIV-1			IC50	3.5 µM
Nc1nc2c(ncn2[C@H]2CC[C@@H](COP(=O)(O)OP(=O)(O)OP(=O)(O)OP(=O)(O)OC[C@@H]3CC[C@H](n4cnc5c(=O)[nH]c(N)nc54)O3)O2)c(=O)[nH]1		nucleotide incorporation / radiometric	Reverse transcriptase	HIV		RT-W88G	fold resistance	3.3
O=C(O)CCN1C(=O)/C(=C\c2ccc(-c3ccccc3[N+](=O)[O-])o2)SC1=S		scintillation proximity / radiometric	Rev:RRE	HIV-1			IC50	40 µM
CC[C@H]1OC(=O)[C@H](C)[C@@H](O[C@H]2C[C@@](C)(OC)[C@@H](O)[C@H](C)O2)[C@H](C)[C@@H](O[C@@H]2O[C@H](C)C[C@H](N(C)C)[C@H]2O)[C@](C)(O)C[C@@H](C)C(=O)[C@H](C)[C@@H](O)[C@]1(C)O		gel	Rev:RRE	HIV-1	100 µM		inhibition	0%
COc1cc(CN=NC(=O)c2cc3ccccc3s2)cc([N+](=O)[O-])c1O		fluorescence	gp41	HIV-1			IC50	~5 µM
O=C(Nc1ccc(-c2nc3ccc(NC(=O)c4ccccc4)cc3[nH]2)cc1)c1ccccc1		scintillation proximity / radiometric	Rev:RRE	HIV-1			IC50	>90 µM